The results in this text go back to patent publication US20230227769A1, “Means and Methods to Improve Yeast Fermentation Efficiency” (VIB VZW, priority 2020, published 2023).

For the data set, the system named is tolerance to mixture of inhibitors. As to the kind of experiment: Small-scale fermentations in YPDX enriched with a mixture of inhibitors (HMF, furfural, vanillin, acetic acid). More on the design: species or system S. cerevisiae.

B1: AST2^N406I: mutant S. cerevisiae AST2 allele; asparagine on position 406 replaced by isoleucine (protein, listed as Saccharomyces cerevisiae)
chain: MAEKILENKDPKLEAMTVDHEVSAPKPIPVDEPTLTRVARPLRHVRHIPVKSLVFHSKHGPITFSYENKIKLPISKNKLVVQVNYVGLNPVDMKIRNGYTKPIYGEAGIGREYSGVITHVGDNLTNRWNVGDDVYGIYYHPKLAIGALQSSLLIDPRVDPILMRPKNTLSPEKAAGSLFCLGTALNLLAQLKEKDQLNTESNVLINGGTSSVGMFAIQLLKRYYKVSKKLVVVTSGNGAAVLSEHFPDLKDEIIFINYLSCRGKSSKPLRRMLDTGKVVDYDDFNTLKETEDYTQGKFNVVLDFIGGYDILSHSSSLIHAKGAYITTVGDYVGNYKKDVFDSWDNPSANARKMFGSMLWSYDYSHFYFDPNIKIIPKKNDWIHECGKLLNEGVVDCVVDKVYSWKIFKEAFSYMATQRAQGKLIMKVEGF
B1: the “fermentation capacity of TMB 3400 after insertion of the allele” value (YPDX enriched with a mixture of inhibitors) is “improved the fermentation capacity of TMB 3400 significantly”.

B2: AST1^D405I: mutant S. cerevisiae AST1 allele; aspartate on position 405 replaced by isoleucine (protein, listed as Saccharomyces cerevisiae)
chain: MAKDILKNQDPKLQAMIVEHSAPAPKEIPMDAPVLKRVARPLRHVKFIPIKSLIFHTKTGPMDFSYEKKIKTPIPKNKIVVRVSNVGLNPVDMKIRNGYTSSIYGEIGLGREYSGVITEVGENLNYAWHVGDEVYGIYYHPHLAVGCLQSSILVDPKVDPILLRPESVSAEEAAGSLFCLATGYNILNKLSKNKYLKQDSNVLINGGTSSVGMFVIQLLKRHYKLQKKLVIVTSANGPQVLQEKFPDLADEMIFIDYLTCRGKSSKPLRKMLEEKKISQYDPVEDKETILNYNEGKFDVVLDFVGGYDILSHSSSLIHGGGAYVTTVGDYVANYKEDIFDSWDNPSANARKMFGSIIWSYNYTHYYFDPNAKTASANNDWIEQCGDFLKNGTVKCVVDKVYDWKIHKEAFSYMATQRAQGKLIMNVEKF
B2: the “additional protective effect in MD4 or GVM1” value (low inhibitor levels (2.80 g/l HMF, 1.75 g/l furfural, 0.35 g/l vanillin, 4.20 g/l acetic acid)) was “did not appear to confer any additional protective effect”.
